{"source": "PubChem BioAssay AID588499", "about": "(NMMLSC, 2011)", "note": "Only a part is listed here, and it is no random draw. Calls of active or inactive are those of the source. Cut-off read from the data, not from the text of the source: active = inhibition above about 30%; inconclusive = no clear call, values can overlap the other calls; inactive = below that.", "data": [{"system": "Botulinum neurotoxin type A light chain protease (Clostridium botulinum A str. ATCC 3502)", "assay": "BoNT/A light chain protease inhibitors, primary screen, biochemical, flow cytometry, MLPCN library (AID 588499); note: plate controls were buffer without enzyme for full effect and enzyme alone for no effect", "conditions": "multiplex microsphere protease substrate cleavage, at 10 µM, stronger effect = higher value", "values": [{"compound": "O=C(O)C(O)c1ccc(N(CCCl)CCCl)cc1", "note": "(stereo not drawn)", "inhibition": "inactive: -1%"}, {"compound": "CCOC(=O)Nc1ccc([As](=O)(O)O)c(O)c1", "inhibition": "inactive: -0.5%"}, {"compound": "CC1CCNP(=O)(N(CCCl)CCCl)O1", "note": "(stereo not drawn)", "inhibition": "inactive: -0.4%"}, {"compound": "COP(=O)(OC)N1CC1c1ccccc1", "note": "(stereo not drawn)", "inhibition": "inactive: -0.5%"}, {"compound": "CCCCOc1ccc(C(=O)NCC2(N3CCCCC3)CCCCC2)cc1OC", "inhibition": "inactive: -1.2%"}, {"compound": "Cc1cc(SC(NC(=O)c2ccccc2)C(Cl)(Cl)Cl)nc(C(C)C)n1", "note": "(stereo not drawn)", "inhibition": "inactive: -0.2%"}, {"compound": "CCOC(=O)Nc1cccc([As](=O)(O)O)c1", "inhibition": "inactive: -1.3%"}, {"compound": "Cc1cc(SC(NC=O)C(Cl)(Cl)Cl)ncn1", "note": "(stereo not drawn)", "inhibition": "inactive: 0%"}, {"compound": "O=P(Nc1ccccn1)(c1cccc2ccccc12)c1cccc2ccccc12", "inhibition": "inactive: -0.3%"}, {"compound": "O=[N+]([O-])c1ccc(Nc2ccc(Oc3ccc([N+](=O)[O-])cc3[N+](=O)[O-])cc2)c([N+](=O)[O-])c1", "inhibition": "inactive: -0.8%"}, {"compound": "COP1(=S)c2c(C)nn(CCC#N)c2N=C(c2ccc(F)cc2)N1C", "note": "(stereo not drawn)", "inhibition": "inactive: -0.5%"}, {"compound": "COC(=O)C1(C)COP(=O)(N2CCCC2)OC1", "note": "(stereo not drawn)", "inhibition": "inactive: -0.7%"}, {"compound": "O=C(O)C(=O)c1ccc(N(CCCl)CCCl)cc1", "inhibition": "inactive: -0.3%"}, {"compound": "O=C(COc1ccccc1)OC1CN2CCC1CC2", "note": "(stereo not drawn)", "inhibition": "inactive: 0.4%"}, {"compound": "O=C(Nc1ccncc1[N+](=O)[O-])c1ccc([N+](=O)[O-])cc1[N+](=O)[O-]", "inhibition": "inactive: -1.3%"}, {"compound": "O=C(OC1CN2CCC1CC2)c1cccc([N+](=O)[O-])c1", "note": "(stereo not drawn)", "inhibition": "inactive: -1.2%"}, {"compound": "CSc1ccc(Nc2c([N+](=O)[O-])cc([N+](=O)[O-])cc2[N+](=O)[O-])cc1", "inhibition": "inactive: 0.4%"}, {"compound": "CCOC(=O)c1ccc(NC(=O)C(C)(CCl)SC)cc1", "note": "(stereo not drawn)", "inhibition": "inactive: 2.5%"}, {"compound": "CCC(C)N(CC(C)C)C(=S)SC(NC(C)=O)C(Cl)(Cl)Cl", "note": "(stereo not drawn)", "inhibition": "inactive: -1.9%"}, {"compound": "Cc1c2c(nc3ccccc13)SC(C(Cl)Cl)C2", "note": "(stereo not drawn)", "inhibition": "inactive: 0.5%"}, {"compound": "O=C(OC1CN2CCC1CC2)C12CC3CC(CC(C3)C1)C2", "note": "(stereo not drawn)", "inhibition": "inactive: 0.1%"}, {"compound": "Cc1cc(=O)[nH]c(N[N+](=O)[O-])n1", "inhibition": "inactive: 0.1%"}, {"compound": "O=P1(N(CCCl)CCCl)OCCCN1CCCl", "note": "(stereo not drawn)", "inhibition": "inactive: 0.2%"}, {"compound": "O=P1(N(CCCl)CCCl)Nc2ccccc2N1", "inhibition": "inactive: 0.6%"}, {"compound": "COc1ccc2nc(NP(=O)(c3ccccc3)c3ccccc3)sc2c1", "inhibition": "inactive: -0.2%"}, {"compound": "COc1cc(I)ccc1[As](=O)(O)O", "inhibition": "inactive: -0.5%"}, {"compound": "O=[N+]([O-])c1cc(Oc2ccc([N+](=O)[O-])cc2C(F)(F)F)cc([N+](=O)[O-])c1", "inhibition": "inactive: 0.2%"}, {"compound": "COc1ccc(N/C(=N/P(=O)(N2CCOCC2)N2CCOCC2)N2CCOCC2)cc1", "inhibition": "inactive: 0.3%"}, {"compound": "O=[As](O)(c1ccc(O)cc1)c1ccccc1O", "inhibition": "inactive: -0.1%"}, {"compound": "C[As](=O)(O)c1cccc(C(=O)O)c1", "inhibition": "inactive: -0.4%"}, {"compound": "COc1cc(C(=O)NCC2(N3CCOCC3)CCCCC2)ccc1OCC(C)C", "inhibition": "inactive: 1.3%"}, {"compound": "O=[N+]([O-])c1ccc(-c2cc([N+](=O)[O-])c(O)c([N+](=O)[O-])c2)cc1", "inhibition": "inactive: -0.3%"}, {"compound": "Cc1ccc(OP(=O)(Nc2ccc([N+](=O)[O-])cn2)Oc2ccc(C)cc2)cc1", "inhibition": "inactive: 0.2%"}, {"compound": "[N-]=[N+]=NC1CCCCC1NC(=O)c1cc([N+](=O)[O-])cc([N+](=O)[O-])c1", "note": "(stereo not drawn)", "inhibition": "inactive: 0.4%"}, {"compound": "Cc1ccc2nc3c(c(C)c2c1)CC(C(Cl)Cl)S3", "note": "(stereo not drawn)", "inhibition": "inactive: 2.8%"}, {"compound": "ClCCSc1nnc(-c2cccnc2)o1", "inhibition": "inactive: 0.5%"}, {"compound": "CC(C)c1ccc(OP(=O)(Nc2ccccn2)Oc2ccccc2F)cc1", "note": "(stereo not drawn)", "inhibition": "inactive: -0.3%"}, {"compound": "COC(=O)C1(C)COP(=O)(N2CCCCCC2)OC1", "note": "(stereo not drawn)", "inhibition": "inactive: -0.1%"}, {"compound": "O=C(OC1CN2CCC1CC2)c1cccc2[nH]cnc12", "note": "(stereo not drawn)", "inhibition": "inactive: 1%"}, {"compound": "CCN(CC)C(=S)SC(NC=O)C(Cl)(Cl)Cl", "note": "(stereo not drawn)", "inhibition": "inactive: -0.9%"}, {"compound": "CC(C)NC(=O)NP(=O)(Oc1ccccc1)Oc1ccccc1", "inhibition": "inactive: -2%"}, {"compound": "O=[N+]([O-])c1cc([N+](=O)[O-])c(-c2ccn[nH]2)s1", "inhibition": "inactive: -0.6%"}, {"compound": "CCOP1(=S)c2c(C)nn(CCC#N)c2N=C(c2ccccc2F)N1C", "note": "(stereo not drawn)", "inhibition": "inactive: -1%"}, {"compound": "O=P(Nc1nccs1)(c1ccccc1)c1nc2ccccc2s1", "note": "(stereo not drawn)", "inhibition": "inactive: -0.7%"}, {"compound": "O=P(Nc1nccs1)(Oc1ccccc1)Oc1ccccc1", "inhibition": "inactive: -0.1%"}, {"compound": "O=C(O)COc1ccc([As](=O)(O)O)cc1[N+](=O)[O-]", "inhibition": "inactive: -1.5%"}, {"compound": "Nc1ccccc1[As](=O)(O)c1ccccc1", "inhibition": "inactive: 0.3%"}, {"compound": "NC(=O)Nc1ccc([As](=O)(O)O)cc1", "inhibition": "inactive: -0.4%"}, {"compound": "N#CCCN(C(=O)COC(=O)C(O)(c1ccccc1)c1ccccc1)c1ccc(F)cc1", "inhibition": "inactive: -261%"}, {"compound": "CCOP1(=S)c2c(C)nn(CCC#N)c2N=C(c2ccc(F)cc2)N1C", "note": "(stereo not drawn)", "inhibition": "inactive: 0.4%"}, {"compound": "CN(C(=O)Cc1ccccc1)[C@@H]1CC[C@]2(CCCO2)C[C@H]1N1CCCC1", "inhibition": "inactive: -0.3%"}, {"compound": "CN(C)C(=O)c1cc([N+](=O)[O-])cc2c1-c1c(cc([N+](=O)[O-])cc1[N+](=O)[O-])C2=O", "inhibition": "inactive: -1.3%"}, {"compound": "O=[N+]([O-])c1ccc2c(c1)nnn2O", "inhibition": "inactive: -0.3%"}, {"compound": "CN(C(=O)Cc1ccc(Cl)c(Cl)c1)[C@H]1CC[C@@]2(CCCO2)C[C@@H]1N1CCCC1", "inhibition": "inactive: -0.6%"}, {"compound": "COc1cc(C(=O)NCC2(N3CCOCC3)CCCCC2)cc(Cl)c1OC(C)C", "inhibition": "inactive: 0.1%"}, {"compound": "O=[As](O)(O)c1cccnc1", "inhibition": "inactive: 1.3%"}, {"compound": "CS(=O)(=O)c1ccc(Cl)c(NC(=O)COC(=O)C(O)(c2ccccc2)c2ccccc2)c1", "inhibition": "inactive: 1.2%"}, {"compound": "O=[As](O)(c1cccc(O)c1)c1cccc(O)c1", "inhibition": "inactive: -0.7%"}, {"compound": "Cc1cccc(OCC(=O)OC2CN3CCC2CC3)c1", "note": "(stereo not drawn)", "inhibition": "inactive: -0.2%"}, {"compound": "Nc1cccc2c([As](=O)(O)O)cccc12", "inhibition": "inactive: 1%"}, {"compound": "Cc1ccc(NCCc2c([N+](=O)[O-])cc([N+](=O)[O-])cc2[N+](=O)[O-])cc1", "inhibition": "inactive: 2.9%"}, {"compound": "CCCOP(=S)(Nc1nc(N)cc(=O)[nH]1)OCCC", "inhibition": "inactive: 1.4%"}, {"compound": "COc1cc(C2NCCC3(OCCO3)C2(C)C)cc(OC)c1OC", "note": "(stereo not drawn)", "inhibition": "inactive: -0.4%"}]}]}
